A mixed list of measured activities; the numbers were collected in NIAID ChemDB.

All rows: whole-cell or culture tests; species: HIV-1; endpoint: fold resistance

Blank or dashed fields: not listed here. Fold resistance has wild type as its base. Lines come from different laboratories, so protocols vary.

smiles | mutations | cells | read by | strain or isolate | value
CC(C)CN(C[C@@H](O)[C@H](Cc1ccccc1)NC(=O)O[C@H]1CCO[C@H]2OCC[C@H]21)S(=O)(=O)c1ccc2nc(NC3CC3)sc2c1 | L10F L33I M36I M46I I54V K55R I62V L63P A71V G73S V82T | MT-4 | p24 / luminescence | NL4-3 | 7.2
CC(C)=CCN1Cc2cc(Cl)cc3[nH]c(=S)n(c23)C[C@@H]1C | RT-Y188H | CEM | syncytia | IIIB HEPT-resistant (RT Y188H) | ≥250
CC(C)CN(C[C@@H](O)[C@H](Cc1ccccc1)NC(=O)[C@H](CC(N)=O)NC(=O)c1ccc2ccccc2n1)C(=O)NC(C)(C)C | PR-G48V A71T V82A | MT-2 | - | RF | 25.2
CCOCn1c(Cc2ccccc2)c(C(C)C)c(=O)[nH]c1=O | RT-K103N | CEM | cytopathic effect | Y-1 (RT-K103N) | 200
Nc1nc(=O)n([C@@H]2CS[C@H](CO)O2)cc1F | RT-K65R M184V | MT-2 | cytopathic effect / XTT | Site-directed mutant | >210
Cc1cccc(NC(=S)NC[C@H](C)c2ccccc2)n1 | RT-Y181C | PBMC | p24 | NNRTI-resistant (RT Y181C) A17 | 35
Cc1cc(S(N)(=O)=O)ccc1NC(=O)COc1ccc(Cl)cc1C(=O)c1cc(Cl)cc(C#N)c1 | RT-K101E | MAGI | β-galactosidase | NNRTI-resistant (RT K101E) | 1.85
CC(C)CN(C[C@@H](O)[C@H](Cc1ccccc1)NC(=O)O[C@H]1CCOC1)S(=O)(=O)c1ccc(N)cc1 | L10I I15V K20R L24I V32I M36I M46I L63P K70Q V82A I84V L89M | MT-4 | p24 / luminescence | NL4-3 | >27
N#Cc1cc2[nH]c3ccccc3c2n(-c2ccc([N+](=O)[O-])cc2)c1=O | RT-K103N | HeLa | luciferase | NNRTI-resistant | 0.6
Cc1cn([C@H]2C[C@H](N=[N+]=[N-])[C@@H](CO)O2)c(=O)[nH]c1=O | RT-K65R H221Y | MT-2 | cytopathic effect / XTT | Site-directed mutant | 1.3
C/C=C/CSc1cc(NC(=S)c2ccsc2C)ccc1Cl | RT-V108I | CEM + CEM-SS | cytopathic effect / XTT | NL4-3 (RT V108I) | 4
Cc1cn([C@H]2C[C@H](N=[N+]=[N-])[C@@H](CO)O2)c(=O)[nH]c1=O | RT-P119S L214F | MT-2 | p24 | RT P119S L214F | 1.4
CCOCn1c(Sc2ccccc2)c(CC)c(=O)[nH]c1=O | RT-L100I | CEM | syncytia | IIIB BHAP(RT-L100I) | 6
Cc1ccnc2c1NC(=O)c1cccnc1N2C1CC1 | RT-D67N K70R T215Y K219Q | HT4 + HT4 LacZ-1 | plaque count | RTMC | 0.833
Cc1cn([C@H]2C[C@H](N=[N+]=[N-])[C@@H](CO)O2)c(=O)[nH]c1=O | RT-K103N | CEM | cytopathic effect | Y-1 (RT-K103N) | 57
CCCc1cc(=O)oc2c3c(c4c(c12)OC(C)(C)C=C4)O[C@@H](C)[C@H](C)[C@@H]3O | RT-Y181C K101E | CEM + CEM-SS | cytopathic effect / XTT | UC10-resistant (RT Y181C K101E) | 8.8
C[C@@H](CNC(=S)Nc1ccc(Br)cn1)c1ccccc1 | RT-Y181C | PBMC | p24 | NNRTI-resistant (RT Y181C) A17 | 223
Cc1cn([C@H]2C[C@H](N=[N+]=[N-])[C@@H](CO)O2)c(=O)[nH]c1=O | RT-M41L K70R T215F K219E | HeLa | luciferase | NRTI resistant | 83.7
Nc1ncnc2c1ncn2[C@@H]1O[C@H](CO)C[C@@H]1F | RT-P119S V179D L214F | MT-2 | p24 | RT P119S V179D L214F | 4
Cc1occc1C(=S)Nc1ccc(Cl)c(/C=N/OC(C)(C)C)c1 | RT-V108I | CEM + CEM-SS | cytopathic effect / XTT | NL4-3 (RT V108I) | 2.5
C[C@@H](NC(=S)Nc1ccc(Br)cn1)c1cccc2ccccc12 | RT-Y181C | PBMC | p24 | NNRTI-resistant (RT Y181C) A17 | 70
Nc1ccn([C@H]2C=C[C@@H](CO)O2)c(=O)n1 | RT-M184V | CD4+HELA + HeLa | plaque count | HXB2 | 1.11
Nc1ccn([C@H]2CC[C@@H](CO)O2)c(=O)n1 | RT-P119S | MT-2 | p24 | P119S(RT-P119S) | 0.9
O=c1[nH]cnc2c1ncn2[C@H]1CC[C@@H](CO)O1 | RT-K65R | MT-4 | p24 | HXB2D (RT-K65R) | 3.16
CC(C)OC(=O)OCOP(=O)(CO[C@H](C)Cn1cnc2c(N)ncnc21)OCOC(=O)OC(C)C | RT-P119S V179D L214F | MT-2 | p24 | P18 FDDA-resistant RT P119S V179D L214F | 0.332
Nc1ncnc2c1ncn2CCOCP(=O)(O)O | RT-P119S | MT-2 | p24 | P119S(RT-P119S) | 1.1
CCn1c(=O)c(C)cn([C@@H]2O[C@H](CO[Si](C)(C)C(C)(C)C)C3(OS(=O)(=O)C=C3N)[C@H]2O[Si](C)(C)C(C)(C)C)c1=O | RT-Y181C | CEM | syncytia | IIIB PYR(RT-Y181C) | >833
C[C@@H](NC(=S)Nc1ccc(Cl)cn1)c1cccc2ccccc12 | RT-Y181C K103N | PBMC | p24 | NNRTI-resistant (RT Y181C K103N) A17V | 367
O=c1[nH]cnc2c1ncn2[C@H]1CC[C@@H](CO)O1 | RT-M41L V118I M184V | HeLa | luciferase | Recombinant | 1.7
CC(C)=CCOc1cc(NC(=S)c2ccoc2C)ccc1Cl | RT-L100V K103R/K Y188H | CEM | cytopathic effect | B-1 (RT L100V K103R/K Y188H) | 5
Cc1cn([C@H]2C[C@H](N=[N+]=[N-])[C@@H](CO)O2)c(=O)[nH]c1=O | RT-D67N K70R T215Y | HT4 + HT4-6C | plaque count | clinical isolate A036D (RT D67N K70R T215Y) | 560
CCOCn1c(Cc2cc(C)cc(C)c2)c(CC)c(=O)[nH]c1=O | RT-Y181C | CEM | syncytia | IIIB PYR(RT-Y181C) | 123
Nc1ccn([C@H]2CC[C@@H](CO)O2)c(=O)n1 | RT-V75T | CD4+HELA + HeLa | plaque count | HXB2 | 19.3
COC(=O)N[C@H](C(=O)N[C@@H](Cc1ccccc1)[C@@H](O)CN(Cc1ccc(-c2ccccn2)cc1)NC(=O)[C@@H](NC(=O)OC)C(C)(C)C)C(C)(C)C | L10F V32I L33F M46L I54M A71V | MT-4 | p24 / luminescence | NL4-3 | 0.8
Cc1cn([C@@H]2O[C@H](CO[Si](C)(C)C(C)(C)C)C3(OS(=O)(=O)C=C3N)[C@H]2O[Si](C)(C)C(C)(C)C)c(=O)n(C)c1=O | RT-Y188H | CEM | syncytia | IIIB HEPT-resistant (RT Y188H) | ≥1670
CCN[C@H]1CO[C@@H]2OCC[C@H](OC(=O)N[C@@H](Cc3ccccc3)[C@H](O)CN(CC(C)C)S(=O)(=O)c3ccc4nc(NC5CC5)sc4c3)[C@@H]21 | L10I I54V K20R L24I V32I L33F M36I M46I I54M L63P K70Q V82I I84V L89M | MT-4 | p24 / luminescence | NL4-3 | 19
Cc1csc(NC(=S)N[C@H](C)c2cccc3ccccc23)n1 | RT-Y181C K103N | PBMC | p24 | NNRTI-resistant (RT Y181C K103N) A17V | 114

For reference, 3 entries again:

Nc1ccn([C@H]2CC[C@@H](CO)O2)c(=O)n1 ; mutations: RT-P119S ; cells: MT-2 ; read by: p24 ; strain or isolate: P119S(RT-P119S) ; value: 0.9
Cc1cn([C@H]2C[C@H](N=[N+]=[N-])[C@@H](CO)O2)c(=O)[nH]c1=O ; mutations: RT-P119S L214F ; cells: MT-2 ; read by: p24 ; strain or isolate: RT P119S L214F ; value: 1.4
N#Cc1cc2[nH]c3ccccc3c2n(-c2ccc([N+](=O)[O-])cc2)c1=O ; mutations: RT-K103N ; cells: HeLa ; read by: luciferase ; strain or isolate: NNRTI-resistant ; value: 0.6